Source: PubChem BioAssay AID1259414 (Drosophila RNAi Screening Center, 2018)

Screen: 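Host factors increasing or decreasing Wolbachia levels in cultured fly cells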 (primary screen)
Cell system: Drosophila JW18 cells infected with Wolbachia
Knock-down reagent: long dsRNA against Drosophila genes, 0.25 µg dsRNA per well of a 384-well plate
Timing: 5 days
Challenge: cells persistently infected with Wolbachia before knock-down; no added drug
Detection: 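Imaged fluorescence in situ signal for Wolbachia 23S rRNA per DAPI-counted host cell, given as a robust z-score within each plate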
Scale: Wolbachia per cell robust z: higher = more Wolbachia per host cell than the plate typical
Call rule: 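Active if absolute robust z reaches 1.5 in two or more of three replicates, leaving out multi- or no-target dsRNAs, genes unexpressed in JW18 and A1 wells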
The deposit covers about 24,000 reagents; below is an unselected part of those with a known target gene and a result. In the full data, about 1,210 (5%) got an active call. 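Inactive calls also include excluded dsRNAs with several or no targets, genes unexpressed in JW18, and well A1, regardless of score.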 The numbers tell different reagents against one gene apart.

m (miniature) #1 — Wolbachia per cell robust z, rep 1 = -0.312; Wolbachia per cell robust z, rep 2 = 0.675; Wolbachia per cell robust z, rep 3 = 0.596; Call = inactive
m (miniature) #2 — Wolbachia per cell robust z, rep 1 = 0.0269; Wolbachia per cell robust z, rep 2 = -1.78; Wolbachia per cell robust z, rep 3 = -1.42; Call = inactive
Recs1 — Wolbachia per cell robust z, rep 1 = 0.814; Wolbachia per cell robust z, rep 2 = -6.41; Wolbachia per cell robust z, rep 3 = 0.203; Call = inactive
CG13362 #1 — Wolbachia per cell robust z, rep 1 = 1.36; Wolbachia per cell robust z, rep 2 = 0.679; Wolbachia per cell robust z, rep 3 = 1.28; Call = inactive
CG13362 #2 — Wolbachia per cell robust z, rep 1 = 0.675; Wolbachia per cell robust z, rep 2 = 0.306; Wolbachia per cell robust z, rep 3 = -0.518; Call = inactive
CG9500 — Wolbachia per cell robust z, rep 1 = 1.13; Wolbachia per cell robust z, rep 2 = 0.931; Wolbachia per cell robust z, rep 3 = 0.612; Call = inactive
pdgy (pudgy) #1 — Wolbachia per cell robust z, rep 1 = -8.21; Wolbachia per cell robust z, rep 2 = -0.381; Wolbachia per cell robust z, rep 3 = -0.391; Call = inactive
pdgy (pudgy) #2 — Wolbachia per cell robust z, rep 1 = -4.01; Wolbachia per cell robust z, rep 2 = -0.916; Wolbachia per cell robust z, rep 3 = 1.54; Call = inactive
Tango5 (Transport and Golgi organization 5) #1 — Wolbachia per cell robust z, rep 1 = -4.61; Wolbachia per cell robust z, rep 2 = 0.387; Wolbachia per cell robust z, rep 3 = -0.188; Call = inactive
Tango5 (Transport and Golgi organization 5) #2 — Wolbachia per cell robust z, rep 1 = -0.105; Wolbachia per cell robust z, rep 2 = -1.51; Wolbachia per cell robust z, rep 3 = 0.0557; Call = inactive
CG15570 — Wolbachia per cell robust z, rep 1 = 0.828; Wolbachia per cell robust z, rep 2 = 0.946; Wolbachia per cell robust z, rep 3 = -1.19; Call = inactive
Spn47C (Serpin 47C) #1 — Wolbachia per cell robust z, rep 1 = -0.671; Wolbachia per cell robust z, rep 2 = -1.8; Wolbachia per cell robust z, rep 3 = 0.00675; Call = inactive
Spn47C (Serpin 47C) #2 — Wolbachia per cell robust z, rep 1 = 0.77; Wolbachia per cell robust z, rep 2 = 0.145; Wolbachia per cell robust z, rep 3 = 0.449; Call = inactive
ITP (Ion transport peptide) — Wolbachia per cell robust z, rep 1 = -0.411; Wolbachia per cell robust z, rep 2 = 0.365; Wolbachia per cell robust z, rep 3 = -0.275; Call = inactive
CG2017 — Wolbachia per cell robust z, rep 1 = 0.61; Wolbachia per cell robust z, rep 2 = 0.16; Wolbachia per cell robust z, rep 3 = -0.22; Call = inactive
Rpn12 (Regulatory particle non-ATPase 12) #1 — Wolbachia per cell robust z, rep 1 = 1.8; Wolbachia per cell robust z, rep 2 = 2.07; Wolbachia per cell robust z, rep 3 = 0.00454; Call = active
Rpn12 (Regulatory particle non-ATPase 12) #2 — Wolbachia per cell robust z, rep 1 = 1.49; Wolbachia per cell robust z, rep 2 = 2.45; Wolbachia per cell robust z, rep 3 = 2.22; Call = active
CG33158 #1 — Wolbachia per cell robust z, rep 1 = 0.987; Wolbachia per cell robust z, rep 2 = -0.257; Wolbachia per cell robust z, rep 3 = -1.58; Call = inactive
CG33158 #2 — Wolbachia per cell robust z, rep 1 = 0.647; Wolbachia per cell robust z, rep 2 = 0.386; Wolbachia per cell robust z, rep 3 = 0.538; Call = inactive
CG33158 #3 — Wolbachia per cell robust z, rep 1 = -1.61; Wolbachia per cell robust z, rep 2 = -1.6; Wolbachia per cell robust z, rep 3 = -1.95; Call = active
Gprk2 (G protein-coupled receptor kinase 2) #1 — Wolbachia per cell robust z, rep 1 = -0.344; Wolbachia per cell robust z, rep 2 = -0.245; Wolbachia per cell robust z, rep 3 = -4.7; Call = inactive
Gprk2 (G protein-coupled receptor kinase 2) #2 — Wolbachia per cell robust z, rep 1 = 0.335; Wolbachia per cell robust z, rep 2 = -2.58; Wolbachia per cell robust z, rep 3 = 0.616; Call = inactive
TMEM216 (Transmembrane protein 216) #1 — Wolbachia per cell robust z, rep 1 = 0.443; Wolbachia per cell robust z, rep 2 = 0.21; Wolbachia per cell robust z, rep 3 = 0.75; Call = inactive
TMEM216 (Transmembrane protein 216) #2 — Wolbachia per cell robust z, rep 1 = -0.171; Wolbachia per cell robust z, rep 2 = 0.646; Wolbachia per cell robust z, rep 3 = -0.66; Call = inactive

Entries above whose gene name begins with P or p:
pdgy (pudgy) #1 — Wolbachia per cell robust z, rep 1 = -8.21; Wolbachia per cell robust z, rep 2 = -0.381; Wolbachia per cell robust z, rep 3 = -0.391; Call = inactive
pdgy (pudgy) #2 — Wolbachia per cell robust z, rep 1 = -4.01; Wolbachia per cell robust z, rep 2 = -0.916; Wolbachia per cell robust z, rep 3 = 1.54; Call = inactive
